Consider 3 sequences from paper PMC5593926 (Scientific Reports, 2017).

For some of these results: Plain letter strings leave the end groups untold.

Data set [1] can be described thus: Secondary structure analysis by circular dichroism. The format is physicochemical. Conditions: 600 µg/ml, 190-250 nm, 0.1 cm path length, triplicate. As for the experimental part:
Conformational studies of constructs were performed using a J-710 spectropolarimeter (Jasco Corporation, Japan). Samples with 600 µg/ml concentration were transferred into a low volume quartz cuvette with 0.1 cm path length. CD spectra were analysed between 250 nm and 190 nm wavelengths. Measurements were performed in triplicate (reported as an average of readings). Spectral results are reported as mean residual ellipticity (θ) versus wavelength (nm).

The nature of data set [2]: Boc solid-phase peptide synthesis; p-MBHA; HATU/DIPEA. The conditions noted are these: whole synthesis, scale of the general procedure 0.2 mmol.
Data set [3] is described as follows: general procedure: peptide synthesis; Rink amide MBHA (0.45 mmol/g); p-methylbenzhydrylamine resin (p-MBHA); HATU/DIPEA. Conditions: whole synthesis, analytical HPLC, ESI-MS, scale of the general procedure 0.2 mmol.

SELLSLINDMPITNDQKKLMSNN [IIP3]: the “Secondary structure (Determined by CD)” value in data set [1] is “Random coil”.

For the sequence KNYIDKQLLPIVNKQS [ØP1], the “Secondary structure (Determined by CD)” value in data set [1] is “Random coil”.

Sequence AKFVAAWTLKAAA showed an isolated yield in data set [2] of 52%. In addition, in data set [3], the “final HPLC purity” value is given as ≥95%.
